{"source": "the supplement of paper PMC12317010", "experiment": "collision cross section in nitrogen (drift tube, single-field); higher = larger gas-phase ion size", "conditions": "ion source: ESI, ion mode: Positive"}
{"smiles": "CCCCOP(=O)(OCCCC)OCCCC", "note": "[Tributyl phosphate]", "values": [{"measurement": "collision cross section in nitrogen", "setting": "ion type: [M+H]", "value": 156.9, "unit": "Å²"}, {"measurement": "collision cross section in nitrogen", "setting": "ion type: [M+Na]", "value": 184.6, "unit": "Å²"}]}
